Compound potency records, mixed from different reports. Data source: NIAID ChemDB in PubChem.

Shared fields: tests in culture; agent: Aspergillus clavatus

MIC50, MIC90 and the like: level of inhibition, or share of isolates inhibited. Blank or dashed fields: not listed here. Conditions beyond the fields shown may differ between rows.

smiles,read-out,read by,strain or isolate,result
CCOc1ccc2nc(NS(=O)(=O)C3C(=O)ONN3c3ccc(C)cc3)sc2c1,MIC,broth dilution,MTCC323,250 µg/mL
Cc1ccc(-c2nc3ccccc3c(=O)n2-c2ccc(C(=O)NN3C(=O)/C(=C/c4ccccc4O)SC3c3ccc(F)cc3)cc2)cc1,MIC100,,MTCC 1323,1000 µg/mL
O=C(CSc1nnc(-c2ccc(N=Cc3cccs3)cc2)o1)Nc1ccccc1[N+](=O)[O-],MIC,broth dilution,MTCC 1323,500 µg/mL
COc1ccc(/C=C2/S/C(=N/NC(=O)c3sc(NC(=O)c4ccc(F)cc4)nc3C)N(c3ccccc3)C2=O)cc1,MIC50,,MTCC 1323,100 µg/mL
CN1CCN(c2nc(Nc3ccc(C#N)c(C(F)(F)F)c3)nc(Oc3cccc4cccnc34)n2)CC1,MIC,agar,MTCC 1323,100 µg/mL
CC(C)N1CCN(c2nc(NCCNc3ncnc4c(Br)cc(Br)cc34)nc(NC3CC3)n2)CC1,MIC,agar,MTCC 1323,100 µg/mL
Cc1nn(-c2ccccc2)c2c1C(c1ccccc1)c1c(nc(=S)[nH]c1N)O2,MIC,,MTCC 1323,>1000 µg/mL
CC(=O)N1CCN(c2nc(Nc3ccc(C#N)c(C(F)(F)F)c3)nc(Oc3cccc4cccnc34)n2)CC1,MIC,agar,MTCC 1323,6.25 µg/mL
Cc1cc(Cl)[nH]c2ccc3c(=O)c(C(=O)NN=Cc4ccc(Cl)cc4)cnc3c12,MIC,broth dilution,,250 µg/mL
CCN1CCN(c2nc(Nc3ccc(C#N)c(C(F)(F)F)c3)nc(Oc3cccc4cccnc34)n2)CC1,MIC,agar,MTCC 1323,50 µg/mL
Cc1cc(Cl)[nH]c2ccc3c(=O)c(C(=O)NN4C(=O)C(Cl)C4c4ccccc4O)cnc3c12,MIC,broth dilution,,1000 µg/mL
O=C(CSc1nnc(-c2ccc3ncccc3c2)o1)Nc1ccc(Br)cc1,MIC,agar,,25 µg/mL
COc1ccc(Nc2nc3c(sc(=S)n3-c3ccccc3)c(=O)n2-c2ccc(OC)cc2)cc1,MIC,broth dilution,MTCC 1323,16 µg/mL
CC(=O)Nc1ccc(OCC(=O)N2N=C(c3nc4ccccc4[nH]3)CC2c2ccc(Cl)cc2)cc1,MIC100,,MTCC 1323,50 µg/mL
Fc1ccccc1N1CCN(c2nc(NCCNc3ncnc4c(Br)cc(Br)cc34)nc(NC3CC3)n2)CC1,MIC,agar,MTCC 1323,100 µg/mL
CS(C)=O,MIC,,MTCC 1323,>100 µg/mL
COc1ccc(C2=NN(C3=NC(=O)CS3)C(c3cc4ccccc4nc3Cl)C2)cc1,MIC100,,MTCC 1323,1000 µg/mL
Cc1cc(Cl)[nH]c2ccc3c(=O)c(C(=O)NN=Cc4ccccc4)cnc3c12,MIC,broth dilution,,>1000 µg/mL
Cc1nn(-c2ccccc2)c2c1C(c1cccc(Cl)c1)c1c(nc(=S)[nH]c1N)O2,MIC,,MTCC 1323,1000 µg/mL
Cc1cc(Cl)[nH]c2ccc3c(=O)c(C(=O)NN4C(=O)C(Cl)C4c4ccc(Cl)cc4)cnc3c12,MIC,broth dilution,,500 µg/mL
COC1=CC(=O)C[C@@H](C)[C@]12Oc1c(Cl)c(OC)cc(OC)c1C2=O,MIC100,,MTCC 1323,1000 µg/mL
CC(=O)Nc1ccc(OCC(=O)N2N=C(c3nc4ccccc4[nH]3)CC2c2ccc(C)cc2)cc1,MIC100,,MTCC 1323,500 µg/mL
Cc1ccccc1NC(=O)CSc1nnc(-c2ccc(N=Cc3cccs3)cc2)o1,MIC,broth dilution,MTCC 1323,500 µg/mL
O=C1CSC(N2N=C(c3ccccc3)CC2c2cc3ccccc3nc2Cl)=N1,MIC100,,MTCC 1323,1000 µg/mL
CC(=O)Nc1ccc(OCC(=O)N2N=C(c3nc4ccccc4[nH]3)CC2c2ccc(O)cc2)cc1,MIC100,,MTCC 1323,500 µg/mL
O=C(CSc1nnc(-c2ccc(N=Cc3cccs3)cc2)o1)Nc1ccccc1Cl,MIC,broth dilution,MTCC 1323,500 µg/mL
COc1ccc(NC(=O)CSc2nnc(-c3ccc4ncccc4c3)o2)cc1,MIC,agar,,100 µg/mL
Cc1ccc(C2c3c(nc(=O)[nH]c3N)Oc3c2c(C)nn3-c2ccccc2)cc1,MIC,,MTCC 1323,500 µg/mL
CC1CC(C)CN(c2nc(Cl)nc(NC3CC3)n2)C1,MIC,agar,MTCC 1323,50 µg/mL
CC(=O)Nc1ccc2nc(NC(=O)CSc3nnc(-c4ccc5ncccc5c4)o3)sc2c1,MIC,agar,,50 µg/mL
Cc1ccc(N2NOC(=O)C2S(=O)(=O)Nc2nc3ccc(Br)cc3s2)cc1,MIC,broth dilution,MTCC323,200 µg/mL
CC(=O)Nc1ccc(OCC(=O)N2N=C(c3nc4ccccc4[nH]3)CC2c2cccc(C)c2)cc1,MIC100,,MTCC 1323,500 µg/mL
Cc1ccc(-c2csc(NS(=O)(=O)C3C(=O)ONN3c3ccc(C)cc3)n2)cc1,MIC,broth dilution,MTCC323,1000 µg/mL
N#Cc1ccc(Nc2nc(Oc3ncnc4ccccc34)nc(N3CCN(c4ccccc4)CC3)n2)cc1C(F)(F)F,MIC,,MTCC 1323,>100 µg/mL
Cc1nc(NC(=O)c2ccc(F)cc2)sc1C(=O)N/N=C1/S/C(=C/c2ccccc2O)C(=O)N1c1ccccc1,MIC50,,MTCC 1323,100 µg/mL
COc1ccc(C=NNC(=O)c2cnc3c(ccc4[nH]c(Cl)cc(C)c43)c2=O)cc1,MIC,broth dilution,,500 µg/mL
CCOc1ccc2nc(NC(=O)CSc3nnc(-c4ccc5ncccc5c4)o3)sc2c1,MIC,agar,,50 µg/mL
N#Cc1ccc(Nc2nc(Oc3cccc4cccnc34)nc(N3CCN(c4cccc(Cl)c4)CC3)n2)cc1C(F)(F)F,MIC,agar,MTCC 1323,12.5 µg/mL
Cc1ccc(-c2nc3ccccc3c(=O)n2-c2ccc(C(=O)NN3C(=O)/C(=C/c4ccccc4Cl)SC3c3ccc(F)cc3)cc2)cc1,MIC100,,MTCC 1323,100 µg/mL
Cc1ccccc1/C=C1/S/C(=N/NC(=O)c2sc(NC(=O)c3ccc(F)cc3)nc2C)N(c2ccccc2)C1=O,MIC50,,MTCC 1323,25 µg/mL
COc1ccc(NC(=O)CSc2nnc(-c3ccc(N=Cc4cccs4)cc3)o2)cc1,MIC,broth dilution,MTCC 1323,1000 µg/mL
Cc1nn(-c2ccccc2)c2c1C(c1ccc(Cl)cc1)C(C#N)=C(N)O2,MIC,,MTCC 1323,>1000 µg/mL
Cc1ccc(-c2nc3ccccc3c(=O)n2-c2ccc(C(=O)NN3C(=O)/C(=C/c4ccc(O)cc4)SC3c3ccc(F)cc3)cc2)cc1,MIC100,,MTCC 1323,250 µg/mL
Cc1nc(NC(=O)c2ccc(F)cc2)sc1C(=O)N/N=C1/S/C(=C/c2ccccc2[N+](=O)[O-])C(=O)N1c1ccccc1,MIC50,,MTCC 1323,1000 µg/mL
Cc1ccc(-c2nc3ccccc3c(=O)n2-c2ccc(C(=O)NN3C(=O)/C(=C/c4ccccc4)SC3c3ccc(F)cc3)cc2)cc1,MIC100,,MTCC 1323,1000 µg/mL
Cc1nc(NC(=O)c2ccc(F)cc2)sc1C(=O)N/N=C1/S/C(=C/c2ccc([N+](=O)[O-])cc2)C(=O)N1c1ccccc1,MIC50,,MTCC 1323,250 µg/mL
O=C(CSc1nnc(-c2ccc3ncccc3c2)o1)Nc1nc2ccc(F)cc2s1,MIC,agar,,100 µg/mL
Cc1ccc(C2C(C#N)=C(N)Oc3c2c(C)nn3-c2ccccc2)cc1,MIC,,MTCC 1323,1000 µg/mL
COc1ccc(C2CC(c3nc4ccccc4[nH]3)=NN2C(=O)COc2ccc(NC(C)=O)cc2)cc1,MIC100,,MTCC 1323,1000 µg/mL
Cc1ccc(NC(=O)CSc2nnc(-c3ccc(N=Cc4cccs4)cc3)o2)c(C)c1,MIC,broth dilution,MTCC 1323,250 µg/mL
Cc1ccc(-c2nc3ccccc3c(=O)n2-c2ccc(C(=O)NN3C(=O)/C(=C/c4cccc([N+](=O)[O-])c4)SC3c3ccc(F)cc3)cc2)cc1,MIC100,,MTCC 1323,500 µg/mL
N#Cc1ccc(Nc2nc(Oc3ncnc4ccccc34)nc(N3CCOCC3)n2)cc1C(F)(F)F,MIC,,MTCC 1323,>100 µg/mL
O=C(CSc1nnc(-c2ccc(N=Cc3cccs3)cc2)o1)Nc1ccccc1,MIC,broth dilution,MTCC 1323,500 µg/mL
CC(=O)Nc1ccc(OCC(=O)N2N=C(c3nc4ccccc4[nH]3)CC2c2ccc(F)cc2)cc1,MIC100,,MTCC 1323,25 µg/mL
O=C1CSC(N2N=C(c3ccccc3O)CC2c2cc3ccccc3nc2Cl)=N1,MIC100,,MTCC 1323,500 µg/mL
Cc1nn(-c2ccccc2)c2c1C(c1ccccc1Cl)c1c(nc(=O)[nH]c1N)O2,MIC,,MTCC 1323,>1000 µg/mL
Cc1ccc(N2NOC(=O)C2S(=O)(=O)Nc2nc3c([N+](=O)[O-])cccc3s2)cc1,MIC,broth dilution,MTCC323,500 µg/mL
CC(=O)Nc1ccc(OCC(=O)N2N=C(c3nc4ccccc4[nH]3)CC2c2ccccc2[N+](=O)[O-])cc1,MIC100,,MTCC 1323,50 µg/mL
COc1ccc(C2c3c(nc(=O)[nH]c3N)Oc3c2c(C)nn3-c2ccccc2)cc1,MIC,,MTCC 1323,250 µg/mL

For reference, 6 entries again:

| smiles | read-out | read by | strain or isolate | result |
|---|---|---|---|---|
| Cc1ccc(NC(=O)CSc2nnc(-c3ccc(N=Cc4cccs4)cc3)o2)c(C)c1 | MIC | broth dilution | MTCC 1323 | 250 µg/mL |
| O=C(CSc1nnc(-c2ccc(N=Cc3cccs3)cc2)o1)Nc1ccccc1 | MIC | broth dilution | MTCC 1323 | 500 µg/mL |
| Cc1ccc(-c2nc3ccccc3c(=O)n2-c2ccc(C(=O)NN3C(=O)/C(=C/c4cccc([N+](=O)[O-])c4)SC3c3ccc(F)cc3)cc2)cc1 | MIC100 |  | MTCC 1323 | 500 µg/mL |
| CC(=O)Nc1ccc(OCC(=O)N2N=C(c3nc4ccccc4[nH]3)CC2c2ccc(C)cc2)cc1 | MIC100 |  | MTCC 1323 | 500 µg/mL |
| Cc1nn(-c2ccccc2)c2c1C(c1cccc(Cl)c1)c1c(nc(=S)[nH]c1N)O2 | MIC |  | MTCC 1323 | 1000 µg/mL |
| Cc1ccc(C2C(C#N)=C(N)Oc3c2c(C)nn3-c2ccccc2)cc1 | MIC |  | MTCC 1323 | 1000 µg/mL |